Results on one molecule are retold here after publication PMC7846482 (The Journal of Biological Chemistry, 2021).

In this test the target is T1, SARS-CoV-2 spike glycoprotein (SARS-CoV-2 Wuhan-Hu-1, UniProt P0DTC2, stabilised, glycosylated).
T1 construct: also called SΔTM; SΔTM-SBP
Put plainly: western blotting. As to conditions: both partners purified.

B1: mouse anti-SARS-CoV-2 spike monoclonal antibody clone R31 (antibody, V domains shown)
VH: QVQLQQSGAELVRPGTSVKISCKASYTFTNYWLAWVKQRPGHGLEWIGDIYPGGAYTNFNEKFKGKATLTADTSSSTAYMQLSSLTSEDSAVYFCARDGHYGYAMDYWGQGTSVTVSS
VL: DIVMTQAAFSNPVTLGTSASISCRSSKSLLHSNGITYLYWYLQKPGQSPQLLIYQMSDLASGVPDRFSSSGSGTDFTLRISRVEAEDVGVYYCAQNLELPRTFGGGIKLEIK
As for B1, the binding result is on record as “binds”.
